Pooled drug test results. Numbers come from NIAID ChemDB, via PubChem.

Shared fields: tests in culture; species: Human herpesvirus 6; endpoint: EC50

ECn: concentration that inhibits the pathogen or its effect by n%.

compound | cell line | strain | method | value
C=CCOc1nc(N)nc2c1ncn2/C=C1/C[C@@H]1CO | HSB-2 | TYPE 6B | flow cytometry | <1.1 µM
O[C@@H]1[C@H](O)CO[C@H]1n1c(Br)nc2cc(Cl)c(Cl)cc21 | MOLT-3 | 6B | hybridisation | 72 µM
Cc1c(S(=O)(=O)c2ccc(Cl)cc2)c(NC(=O)C(F)(F)F)n(Cc2ccccc2)c1C | MOLT-3 | Z29 (TYPE 6B) | cytopathic effect | >20 µg/mL
O=C(O)P(=O)(O)O | HSB-2 | GS | antigen | 49 µM
Nc1nc2c(ncn2COC(CO)CO)c(=O)[nH]1 | Human T-lymphoblasts | - | - | 7.2 µM
OC[C@H]1O[C@@H](n2c(Br)nc3cc(Cl)c(Cl)cc32)[C@H](O)[C@@H]1O | CBL | Z-29 (subtype 6B) | flow cytometry | 125 µM
O[C@@H]1[C@H](O)CO[C@H]1n1c(NC2CC2)nc2cc(Cl)c(Cl)cc21 | MOLT-3 | 6B | hybridisation | >100 µM
Cn1cc(C(=O)NCc2ccc(Cl)cc2)c(=O)c2cc(CN3CCOCC3)ccc21 | CBL | Z-29 (TYPE B) | antigen / flow cytometry | >22 µM
O=C(O)P(=O)(O)O | MOLT-3 | Z29 (TYPE 6B) | hybridisation | 25.4 µM
Nc1ccn(C[C@@H](CO)OCP(=O)(O)O)c(=O)n1 | CBL | Z-29 (subtype 6B) | flow cytometry | >1.6 µM
Nc1nc2c(ncn2CC(CO)CCO)c(=O)[nH]1 | HSB-2 | GS | antigen | 14 µM
Nc1ccn(/C=C2/CC2(CO)CO)c(=O)n1 | HSB-2 | TYPE 6B | flow cytometry | 22.8 µM
N#CC1C(c2ccc(Cl)cc2)Nc2ccccc2S1(=O)=O | HSB-2 | GS (TYPE 6A) | hybridisation | 1.3 µg/mL
CCCCCOc1nc(N)nc2c1ncn2/C=C1/C[C@@H]1CO | HSB-2 | TYPE 6B | flow cytometry | 1.2 µM
Nc1nc2c(ncn2[C@@H]2C[C@H](CO)[C@H]2CO)c(=O)[nH]1 | HSB-2 | GS (subtype 6A) | cytopathic effect | 2.17 µg/mL
OCC1OC(n2c(Br)nc3cc(Cl)c(Cl)cc32)C(O)C1O | HSB-2 | 6a | hybridisation | 31 µM
Nc1ncc2c(ncn2COC(CO)CO)n1 | Human cord blood lymphocytes | - | cytopathic effect | 0.0072 µM
Nc1nc2c(ncn2C[C@]2(CO)C[C@H]2CO)c(=O)[nH]1 | HSB-2 | GS (subtype 6A) | - | 3.45 µg/mL
O[C@@H]1[C@H](O)[C@H](O)CO[C@H]1n1c(Br)nc2cc(Cl)c(Cl)cc21 | MOLT-3 | 6B | hybridisation | >30 µM
Nc1nc2c(ncn2COCCO)c(=O)[nH]1 | HSB-2 | GS | antigen | 59 µM
CC(C)Nc1nc2cc(Cl)c(Cl)cc2n1[C@H]1O[C@@H](CO)[C@H](O)[C@@H]1O | SupT1 | GS (subtype 6A) | flow cytometry | >133 µM
Nc1nc(NCC2CC2)c2ncn(/C=C3/C[C@@H]3CO)c2n1 | HSB-2 | TYPE 6B | flow cytometry | 90 µM
NC(=O)c1c(Cl)c(-c2cccnc2)n2c1CCCC2 | MOLT-3 | TYPE B (Z29) | hybridisation | >100 µM
Nc1nc(OCC2CC2)c2ncn(/C=C3/C[C@@H]3CO)c2n1 | HSB-2 | TYPE 6A | flow cytometry | 3.1 µM
CC(C)Nc1nc2cc(Cl)c(Cl)cc2n1[C@H]1O[C@H](C)[C@H](O)[C@@H]1O | HSB-2 | 6a | hybridisation | 62 µM
Nc1ccn(C[C@@H](CO)OCP(=O)(O)O)c(=O)n1 | MOLT-3 | TYPE 6B | cytopathic effect | 1.9 µg/mL
C[C@H]1O[C@@H](n2c(NC3CC3)nc3cc(Cl)c(Cl)cc32)[C@H](O)[C@@H]1O | MOLT-3 | 6B | hybridisation | >100 µM
Nc1nc2c(ncn2CCC(CO)CO)c(=O)[nH]1 | HSB-2 | GS (subtype 6A) | cytopathic effect | 71 µg/mL
CCCSc1nc(N)nc2c1ncn2/C=C1/C[C@@H]1CO | HSB-2 | TYPE 6B | flow cytometry | 3 µM
N#CC1C(c2ccc(Cl)cc2)Nc2sccc2S1(=O)=O | MOLT-3 | Z29 (TYPE 6B) | hybridisation | 1.8 µg/mL
Nc1nc2c(ncn2COC(CO)CO)c(=O)[nH]1 | MOLT-3 | Z-29 (subtype 6B) | - | 15 µg/mL
O=C(NCc1ccc(Cl)cc1)c1cn2c3c(cc(CN4CCOCC4)cc3c1=O)OC(c1cccnc1)C2 | HSB-2 | GS (TYPE A) | antigen / flow cytometry | >18.8 µM
N#CC1C(c2ccc(Cl)cc2)Nc2c(ccn2Cc2ccccc2)S1(=O)=O | MOLT-3 | Z29 (TYPE 6B) | cytopathic effect | >20 µg/mL

Repeating the final 5 entries:

compound | cell line | strain | method | value
CCCSc1nc(N)nc2c1ncn2/C=C1/C[C@@H]1CO | HSB-2 | TYPE 6B | flow cytometry | 3 µM
N#CC1C(c2ccc(Cl)cc2)Nc2sccc2S1(=O)=O | MOLT-3 | Z29 (TYPE 6B) | hybridisation | 1.8 µg/mL
Nc1nc2c(ncn2COC(CO)CO)c(=O)[nH]1 | MOLT-3 | Z-29 (subtype 6B) | - | 15 µg/mL
O=C(NCc1ccc(Cl)cc1)c1cn2c3c(cc(CN4CCOCC4)cc3c1=O)OC(c1cccnc1)C2 | HSB-2 | GS (TYPE A) | antigen / flow cytometry | >18.8 µM
N#CC1C(c2ccc(Cl)cc2)Nc2c(ccn2Cc2ccccc2)S1(=O)=O | MOLT-3 | Z29 (TYPE 6B) | cytopathic effect | >20 µg/mL

Neighbouring rows are from separate reports. Blank or dashed fields: not listed here.